Experiment: Ca2+ dependent aggregation (light scattering) of E. coli phospholipid vesicles

## SP-A: Native surfactant protein A isolated from the alveolar wash of silica-pretreated rats
Added at 0 time
  Ca2+ induced aggregation of E coli phospholipid vesicles: decreased aggregation
Added at 8 minutes
  Established aggregation of E coli phospholipid vesicles: reversed established aggregation

— patent US7273847B2, “Peptides with antioxidant and antimicrobial properties” (priority 2000, dated 2007)
